Assay results from patent US8722123B2, “Antimicrobial composition and use as food treatment” (priority 2008, dated 2014).

Tested on: E. coli O157:H7

SMILES | E. coli O157:H7 counts at 0 min | E. coli O157:H7 counts at 1 min | E. coli O157:H7 counts at 2 min | E. coli O157:H7 counts at 5 min | E. coli O157:H7 counts at 10 min | E. coli O157:H7 counts at 20 min | E. coli O157:H7 counts at 30 min | E. coli O157:H7 counts at 60 min
CC(=O)CCC(=O)O [0.5% levulinic acid (pH 2.6), levulinic acid] | 7.0 log CFU/ml | 6.7 log CFU/ml | 6.8 log CFU/ml | 6.7 log CFU/ml | 6.9 log CFU/ml | 6.8 log CFU/ml | 6.8 log CFU/ml | 6.4 log CFU/ml
CCCCCCCCCCCCOS(=O)(=O)[O-].[Na+] [0.05% sodium dodecyl sulfate (pH 4.4), sodium dodecyl sulfate] | 7.1 log CFU/ml | 6.9 log CFU/ml | 7.1 log CFU/ml | 7.0 log CFU/ml | 6.9 log CFU/ml | 6.9 log CFU/ml | 7.1 log CFU/ml | 7.0 log CFU/ml
